PSTVd loop 15 mutant pool in Nicotiana benthamiana

Source: Wu et al. 2024 (doi:10.1371/journal.ppat.1012142), supplementary data.

PSTVd intermediate strain, loop 15: wild type GGAAACCGCUACUAC, pool pattern GGAAACCGNNNNNNC; upper and lower strand joined, each 5' to 3', the first 7 letters being the upper strand, closing pairs included.

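A pool of all variants was put on leaves of three Nicotiana benthamiana plants. Progeny were sequenced from the inoculated region (day 5), the margin of the inoculated leaf (day 10) and systemic leaves (day 12).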

Numbers give reads per thousand; 0 = not seen among the reads, higher = more abundant. Each site shows the three plants. "Pool" is the share in the plasmid pool used as inoculum, on the same scale. The inoculated region was read from the minus strand, the other sites from the plus strand. The authors trace changes outside the varied positions to PCR and sequencing errors or to mutation in the plant; presence does not show that a variant is infectious alone. With 43,870-66,106 reads a sample, very low values are single reads. For reference, wild type rose from 33.9 per thousand in the pool to 202, 200, 159 (inoculated region), 724, 746, 710 (leaf margin) and 856, 883, 880 (systemic leaves).

| sequence | pool | inoculated region | leaf margin | systemic leaves |
|---|---|---|---|---|
| GGAAACCGUUUCUUC | 0.240 | 0.278 0.305 0.476 | 0.113 0.134 0.100 | 0.0644 0 0 |
| GGAAACCGUUUGAAC | 0.144 | 0.246 0.353 0.381 | 0.129 0.0223 0.140 | 0.0483 0.121 0.114 |
| GGAAACCGUUUGACC | 0.272 | 0.0983 0.0803 0.0571 | 0 0 0 | 0 0 0 |
| GGAAACCGUUUGAGC | 0.224 | 0.115 0.0803 0.114 | 0.0323 0 0.0200 | 0.0322 0 0 |
| GGAAACCGUUUGAUC | 0.192 | 0.0819 0.0803 0.133 | 0 0.0223 0 | 0 0 0 |
| GGAAACCGUUUGCAC | 0.240 | 0.164 0.0482 0.152 | 0 0 0.0200 | 0 0 0 |
| GGAAACCGUUUGCCC | 0.208 | 0.180 0.129 0.114 | 0.0323 0.0223 0.0401 | 0 0 0 |
| GGAAACCGUUUGCGC | 0.160 | 0.0983 0.0803 0.152 | 0.0485 0 0.0200 | 0 0 0 |
| GGAAACCGUUUGCUC | 0.240 | 0.0819 0.0964 0.133 | 0 0.0445 0.0200 | 0 0 0 |
| GGAAACCGUUUGGAC | 0.240 | 0.180 0.209 0.362 | 0.146 0.0668 0.120 | 0.0644 0 0.0228 |
| GGAAACCGUUUGGCC | 0.224 | 0.131 0.0803 0.0381 | 0.0162 0 0.0200 | 0 0 0 |
| GGAAACCGUUUGGGC | 0.160 | 0.0491 0.0803 0.114 | 0.0162 0 0 | 0 0 0 |
| GGAAACCGUUUGGUC | 0.112 | 0.115 0.0643 0.0762 | 0 0 0.0200 | 0 0 0 |
| GGAAACCGUUUGUAC | 0.272 | 0.180 0.353 0.305 | 0.0970 0.134 0.100 | 0.0322 0.0908 0.0684 |
| GGAAACCGUUUGUCC | 0.160 | 0.295 0.289 0.400 | 0.0808 0.0891 0.200 | 0.0483 0 0 |
| GGAAACCGUUUGUGC | 0.192 | 0.311 0.353 0.286 | 0.0647 0.0891 0.100 | 0.0322 0.0454 0 |
| GGAAACCGUUUGUUC | 0.176 | 0.229 0.145 0.343 | 0.113 0.111 0.200 | 0.0805 0.0605 0.0228 |
| GGAAACCGUUUUAAC | 0.192 | 0.131 0.0161 0.0952 | 0 0 0 | 0 0 0 |
| GGAAACCGUUUUACC | 0.320 | 0.0655 0.0321 0.0571 | 0.0162 0 0.0200 | 0 0 0 |
| GGAAACCGUUUUAGC | 0.272 | 0.0983 0.0803 0.133 | 0 0 0 | 0 0 0 |
| GGAAACCGUUUUAUC | 0.272 | 0.0819 0.0964 0.0762 | 0 0.0223 0.0200 | 0.0161 0 0 |
| GGAAACCGUUUUCAC | 0.160 | 0.0983 0.112 0.0571 | 0.0162 0 0 | 0 0 0 |
| GGAAACCGUUUUCCC | 0.288 | 0.131 0.0964 0.0571 | 0 0 0.0200 | 0 0 0 |
| GGAAACCGUUUUCGC | 0.192 | 0.0491 0.0321 0.114 | 0.0485 0 0 | 0 0 0 |
| GGAAACCGUUUUCUC | 0.304 | 0.0819 0.129 0.114 | 0 0.0223 0.0200 | 0 0 0 |
| GGAAACCGUUUUGAC | 0.288 | 0.0328 0.112 0.0762 | 0.0323 0 0.0401 | 0 0 0 |
| GGAAACCGUUUUGCC | 0.240 | 0.115 0.0803 0.209 | 0.0162 0 0.0401 | 0 0 0 |
| GGAAACCGUUUUGGC | 0.336 | 0.180 0.145 0.114 | 0 0 0 | 0 0 0 |
| GGAAACCGUUUUGUC | 0.224 | 0.0983 0.0482 0.133 | 0 0 0.0200 | 0 0 0 |
| GGAAACCGUUUUUAC | 0.160 | 0.311 0.337 0.381 | 0.113 0.156 0.140 | 0.0161 0 0.114 |
| GGAAACCGUUUUUCC | 0.304 | 0.115 0.0321 0.0571 | 0 0 0.0200 | 0 0 0 |
| GGAAACCGUUUUUGC | 0.240 | 0.164 0.112 0.152 | 0 0 0 | 0 0 0 |
| GGAAACCGUUUUUUC | 0.192 | 0.442 0.337 0.362 | 0.0485 0.111 0.200 | 0.0644 0 0 |
| GGAAACCUCUACUAC | 0.0960 | 0.164 0.450 0.609 | 0.259 0.579 0.841 | 0.338 0.333 0.0228 |

The first 3 entries again:

{"sequence": "GGAAACCGUUUCUUC", "pool": "0.240", "inoculated region": "0.278 0.305 0.476", "leaf margin": "0.113 0.134 0.100", "systemic leaves": "0.0644 0 0"}
{"sequence": "GGAAACCGUUUGAAC", "pool": "0.144", "inoculated region": "0.246 0.353 0.381", "leaf margin": "0.129 0.0223 0.140", "systemic leaves": "0.0483 0.121 0.114"}
{"sequence": "GGAAACCGUUUGACC", "pool": "0.272", "inoculated region": "0.0983 0.0803 0.0571", "leaf margin": "0 0 0", "systemic leaves": "0 0 0"}